Legend:
HCV NS3/4A protease = HCV NS3/4A protease (Hepatitis C virus genotype 1a, UniProt P27958); settings: read-out: Ki (nM) Enzymatic assay; full-length NS3 protease 1 nM, 25 μM NS4A cofactor, competitive inhibition model
[1] = tested on: HCV replicons (NS3-NS5B regions of HCV type 1b) in Huh-7 luc/neo cells; assay: Replicon assay (Huh-Luc cells, luciferase readout); format: cell-based; settings: read-out: EC50 (μM) Replicon assay, three days incubation, luciferase activity

By UniProt entry, the sequences of proteins in these tests, tags left out. Residues count along the entry.
UniProt P27958, 1027-1657 limits assumed: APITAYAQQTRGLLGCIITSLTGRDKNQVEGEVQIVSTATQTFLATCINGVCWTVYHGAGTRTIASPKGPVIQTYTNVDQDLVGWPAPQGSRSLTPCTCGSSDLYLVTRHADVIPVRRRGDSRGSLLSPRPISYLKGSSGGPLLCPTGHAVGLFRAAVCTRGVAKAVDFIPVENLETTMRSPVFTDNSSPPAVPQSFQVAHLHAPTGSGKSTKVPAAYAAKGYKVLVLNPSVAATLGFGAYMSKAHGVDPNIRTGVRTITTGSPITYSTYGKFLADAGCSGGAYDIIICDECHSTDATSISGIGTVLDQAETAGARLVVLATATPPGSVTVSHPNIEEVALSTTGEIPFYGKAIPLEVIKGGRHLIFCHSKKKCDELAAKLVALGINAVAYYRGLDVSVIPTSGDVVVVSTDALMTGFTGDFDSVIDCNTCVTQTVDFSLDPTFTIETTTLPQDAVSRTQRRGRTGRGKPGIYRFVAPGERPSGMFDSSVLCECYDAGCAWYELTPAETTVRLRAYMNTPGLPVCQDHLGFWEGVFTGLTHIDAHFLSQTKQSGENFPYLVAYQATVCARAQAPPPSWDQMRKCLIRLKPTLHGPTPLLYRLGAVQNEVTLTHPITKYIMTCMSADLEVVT

SMILES	Ki (HCV NS3/4A protease) [nM]	EC50 [1] [µM]
Cc1cnc(-c2ccc(C(F)(F)F)cc2NC(=O)O[C@@H]2C[C@H]3C(=O)N[C@]4(C(=O)NS(=O)(=O)C5CC5)C[C@H]4/C=C\CCCCN(C)C(=O)[C@@H]3C2)s1	1.7	0.0032
Cc1ccnn1-c1ccc(C(F)(F)F)cc1NC(=O)O[C@@H]1C[C@H]2C(=O)N[C@]3(C(=O)NS(=O)(=O)C4CC4)C[C@H]3/C=C\CCCCN(C)C(=O)[C@@H]2C1	38	7.58
CCOC(=O)c1ccccc1NC(=O)O[C@@H]1C[C@H]2C(=O)N[C@]3(C(=O)NS(=O)(=O)C4CC4)C[C@H]3/C=C\CCCCN(C)C(=O)N2C1	20	0.269
CN1CCCC/C=C\[C@@H]2C[C@@]2(C(=O)NS(=O)(=O)C2CC2)NC(=O)[C@@H]2C[C@@H](OC(=O)Nc3cc(-n4cccn4)ccc3-n3cccn3)C[C@H]2C1=O	9	1.51
CN1CCCC/C=C\[C@@H]2C[C@@]2(C(=O)NS(=O)(=O)C2CC2)NC(=O)[C@@H]2C[C@@H](OC(=O)Nc3ccccc3-c3ccsc3)CN2C1=O	1280	
Cc1ccn(-c2ccc(F)cc2NC(=O)O[C@@H]2C[C@H]3C(=O)N[C@]4(C(=O)NS(=O)(=O)C5CC5)C[C@H]4/C=C\CCCCN(C)C(=O)[C@@H]3C2)n1	1.4	0.237
CN1CCCC/C=C\[C@@H]2C[C@@]2(C(=O)NS(=O)(=O)C2CC2)NC(=O)[C@@H]2C[C@@H](OC(=O)Nc3cc(C(F)(F)F)ccc3N3CCCCC3)CN2C1=O	8	4.44
CN1CCCC/C=C\[C@@H]2C[C@@]2(C(=O)NS(=O)(=O)C2CC2)NC(=O)[C@@H]2C[C@@H](OC(=O)Nc3ccccc3N3CCCCC3)C[C@H]2C1=O	5	0.111
CN1CCCC/C=C\[C@@H]2C[C@@]2(C(=O)NS(=O)(=O)C2CC2)NC(=O)[C@@H]2C[C@@H](OC(=O)Nc3ccccc3-c3ccccc3)C[C@H]2C1=O	45	4.38
Cc1nc(-c2ccc(C(F)(F)F)cc2NC(=O)O[C@@H]2C[C@H]3C(=O)N[C@]4(C(=O)NS(=O)(=O)C5CC5)C[C@H]4/C=C\CCCCN(C)C(=O)[C@@H]3C2)sc1C	1.7	0.001
CC(C)c1csc(-c2ccc(C(F)(F)F)cc2NC(=O)O[C@@H]2C[C@H]3C(=O)N[C@]4(C(=O)NS(=O)(=O)C5CC5)C[C@H]4/C=C\CCCCN(C)C(=O)[C@@H]3C2)n1	1.9	0.039
Cc1ccc(-c2ccccc2NC(=O)O[C@@H]2C[C@H]3C(=O)N[C@]4(C(=O)NS(=O)(=O)C5CC5)C[C@H]4/C=C\CCCCN(C)C(=O)N3C2)o1	31.6	5.65
CN1CCCC/C=C\[C@@H]2C[C@@]2(C(=O)NS(=O)(=O)C2CC2)NC(=O)[C@@H]2C[C@@H](OC(=O)Nc3ccccc3-c3ccccc3)CN2C1=O	517	
Cc1csc(-c2ccc(C(F)(F)F)cc2NC(=O)O[C@@H]2C[C@H]3C(=O)N[C@]4(C(=O)NS(=O)(=O)C5CC5)C[C@H]4/C=C\CCCCN(C)C(=O)[C@@H]3C2)n1	0.1	0.0074
Cc1ccn(-c2ccc(C(F)(F)F)cc2NC(=O)O[C@@H]2C[C@H]3C(=O)N[C@]4(C(=O)NS(=O)(=O)C5CC5)C[C@H]4/C=C\CCCCN(C)C(=O)[C@@H]3C2)n1	0.5	0.0706
